Here are results for one molecule from PMC4982137, “Mycobacterium tuberculosis H37Ra: a surrogate for the expression of conserved, multimeric proteins of M.tb H37Rv” (Microbial Cell Factories, 2016).

One assay has as its target T1, transferrin-biotin (human, UniProt P02787 20-698, biotin).
T1 construct: also called Tf; human holo-transferrin
As to the kind of experiment: pull-down.

A further assay deals with T2, human transferrin (human, UniProt P02787 20-698).
T2 construct: also called Tf; human holo-transferrin
Nature of the assay: far-Western, overlay or dot blot.

B1:  (complex)
chain 1: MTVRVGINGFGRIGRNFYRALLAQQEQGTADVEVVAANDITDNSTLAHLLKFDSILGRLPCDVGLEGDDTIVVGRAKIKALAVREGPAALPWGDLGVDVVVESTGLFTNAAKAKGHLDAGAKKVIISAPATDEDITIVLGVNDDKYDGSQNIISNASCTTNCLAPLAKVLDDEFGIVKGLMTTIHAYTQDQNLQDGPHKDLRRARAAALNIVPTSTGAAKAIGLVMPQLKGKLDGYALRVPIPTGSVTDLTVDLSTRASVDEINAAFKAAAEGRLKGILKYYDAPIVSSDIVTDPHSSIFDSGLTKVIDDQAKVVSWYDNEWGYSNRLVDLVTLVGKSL
chain 2: MTIRVGVNGFGRIGRNFYRALATQKAEGKNTDIEIVAVNDLTDNATLAHLLKFDSILGRLPQDVSLEGDDTIVIGDTKIKALEVKEGPAALPWGDLGVDVVVESTGIFTNAAKAKGHLDAGAKKVIISAPATDEDITIVLGVNDDKYDGSQNIISNASCTTNCLGPLAKVLNDEFGIVKGLMTTIHAYTQDQNLQDGPHKDLRRARAAALNIVPTSTGAAKAIGLVLPELKGKLDGYALRVPIPTGSVTDLTAELAKSASVEDINAAMKAAAEGPLKGILKYYDAPIVSSDIVTDPHSSLYDAGLTKVIDNQAKVVSWYDNEWGYSNRLADLVALVGKSL
On to B1, for which the binding result in the assay with transferrin-biotin and in the assay with human transferrin was “binds” in each case.
